Data as given in PubChem BioAssay AID624099 (ICCB-Longwood, 2012)
The deposit covers about 21,000 reagents; below is an unselected part. Of all reagents, 497 (2.4%) are marked active. 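Higher z means weaker E2 silencing; only reporter increases were scored, and knock-downs that hurt cell survival may mask genuine repressor factors.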

Aim: 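Human genes that papillomavirus E2 requires to repress the HPV18 LCR promoter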 (primary screen)
Cells: human C33A cervical carcinoma cells (HPV-negative) stably expressing BPV1 E2 and an HPV18 LCR luciferase reporter
Reagents: siRNA pool against human genes, 40 nM
Time to read-out: 72 h
Detection: 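HPV18 LCR reporter light per well, converted to plate-wise z-scores that exclude control wells, and averaged over triplicate plates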
Reading the numbers: mean z-score and z-score: higher = stronger reporter signal, weaker E2 silencing
Rule for the call: 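Hit if mean z-score reaches 2 and two or more of three replicate z-scores also reach 2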

What is on record for TRIM59 (tripartite motif containing 59) [SID134312293]?
mean z-score: -0.82; z-score, replicate A: -0.78; z-score, replicate B: -0.74; z-score, replicate C: -0.94; outcome: inactive

What did the screen give for GAMT (guanidinoacetate N-methyltransferase) [SID134321154]?
mean z-score: 1.23; z-score, replicate A: 1.44; z-score, replicate B: 0.91; z-score, replicate C: 1.33; outcome: inactive

Which result is listed for HLA-F-AS1 (HLA-F antisense RNA 1) [SID134329828]?
mean z-score: 0.88; z-score, replicate A: 0.71; z-score, replicate B: 0.78; z-score, replicate C: 1.16; outcome: inactive

With UVSSA (UV stimulated scaffold protein A) [SID134325959], what does the deposit list?
mean z-score: 0.57; z-score, replicate A: 1.07; z-score, replicate B: 0.67; z-score, replicate C: -0.04; outcome: inactive

For ATG4B (autophagy related 4B cysteine peptidase) [SID134311213], how do the results read?
mean z-score: 0.88; z-score, replicate A: 0.78; z-score, replicate B: 0.67; z-score, replicate C: 1.18; outcome: inactive

How did the screen score MUC5B (mucin 5B, oligomeric mucus/gel-forming) [SID134326638]?
mean z-score: 0.54; z-score, replicate A: 0.39; z-score, replicate B: 0.54; z-score, replicate C: 0.69; outcome: inactive

With LOC391763 (retired record) [SID134326083], what does the deposit list?
mean z-score: 0.37; z-score, replicate A: 0.5; z-score, replicate B: -0.07; z-score, replicate C: 0.68; outcome: inactive

What did the screen give for LOC391763 (retired record) [SID134327591]?
mean z-score: -1.21; z-score, replicate A: -1.21; z-score, replicate B: -1.24; z-score, replicate C: -1.19; outcome: inactive

With RDUR (RIG-I dependent antiviral response regulator RNA) [SID134327352], how do the results read?
mean z-score: 0.28; z-score, replicate A: 0.3; z-score, replicate B: 0.09; z-score, replicate C: 0.44; outcome: inactive

Which result is listed for SMAD3 (SMAD family member 3) [SID134323809]?
mean z-score: 0.39; z-score, replicate A: 0.34; z-score, replicate B: 0.32; z-score, replicate C: 0.5; outcome: inactive

With SMAD3 (SMAD family member 3) [SID134323959], what was measured?
mean z-score: -0.85; z-score, replicate A: -0.89; z-score, replicate B: -0.73; z-score, replicate C: -0.92; outcome: inactive

Which result is listed for PPIP5K2 (diphosphoinositol pentakisphosphate kinase 2) [SID134310631]?
mean z-score: -1.01; z-score, replicate A: -0.45; z-score, replicate B: -0.71; z-score, replicate C: -1.86; outcome: inactive

What did the screen give for CSRP3 (cysteine and glycine rich protein 3) [SID134315764]?
mean z-score: -0.84; z-score, replicate A: -1.05; z-score, replicate B: -0.62; z-score, replicate C: -0.85; outcome: inactive

What is on record for CDC42EP3 (CDC42 effector protein 3) [SID134321297]?
mean z-score: 1.14; z-score, replicate A: 1.01; z-score, replicate B: 1.14; z-score, replicate C: 1.26; outcome: inactive

What is on record for TPPP (tubulin polymerization promoting protein) [SID134323467]?
mean z-score: 0.63; z-score, replicate A: 0.55; z-score, replicate B: 0.58; z-score, replicate C: 0.76; outcome: inactive

For SLC36A4 [SID134312599], what does the deposit list?
mean z-score: 0.15; z-score, replicate A: 0.23; z-score, replicate B: 0.23; z-score, replicate C: 0; outcome: inactive

What is on record for TMEM214 (transmembrane protein 214) [SID134321127]?
mean z-score: 0.52; z-score, replicate A: 0.33; z-score, replicate B: 0.61; z-score, replicate C: 0.63; outcome: inactive

For HCAR2 (hydroxycarboxylic acid receptor 2) [SID134311957], what does the deposit list?
mean z-score: 0.79; z-score, replicate A: 0.92; z-score, replicate B: 0.41; z-score, replicate C: 1.03; outcome: inactive

For GYG1 (glycogenin 1) [SID134311931], what was measured?
mean z-score: 1.32; z-score, replicate A: 1.42; z-score, replicate B: 1.1; z-score, replicate C: 1.44; outcome: inactive

With ALOXE3 (arachidonate epidermal lipoxygenase 3) [SID134313859], what does the deposit list?
mean z-score: 0.17; z-score, replicate A: 0.42; z-score, replicate B: -0.01; z-score, replicate C: 0.1; outcome: inactive

Which result is listed for LAYN (layilin) [SID134322325]?
mean z-score: 0.16; z-score, replicate A: 0.39; z-score, replicate B: 0.62; z-score, replicate C: -0.53; outcome: inactive

Look-ups from the list.
Entry for LAYN (layilin) [SID134322325] under “outcome”: inactive
For “z-score, replicate B”, LOC391763 (retired record) [SID134326083] reads -0.07
GAMT (guanidinoacetate N-methyltransferase) [SID134321154], z-score, replicate C = 1.33
